Anti-infective test results gathered from many reports (values: NIAID ChemDB through PubChem).

Common to all: whole-cell or culture tests; organism: Cryptosporidium parvum; measure: inhibition

Lines come from different laboratories, so protocols vary.

SMILES,strain,cell line,method,tested at,result
COc1cc(/C=C/C=C\c2ccc3c(c2)OCO3)oc(=O)c1,-,-,-,50 µM,0%
Cc1cccc2c1C(=O)c1cnn(C)c1C2=O,-,-,-,25 µM,<10%
CCSc1c2ccccc2nc2cc(N)ccc12,-,-,-,1 µg/mL,60%
Cc1[nH]nc2c1C(=O)c1c(O)ccc(O)c1C2=O,-,-,-,100 µM,90%
COc1cc(O)c2c(O)c(C(=O)c3ccccc3)oc2c1,-,-,-,25 µM,14%
O=C1c2cccc(Cl)c2C(=O)c2cn[nH]c21,-,-,-,25 µM,76%
O=[N+]([O-])c1ccc(Sc2c3ccccc3nc3cc(Cl)ccc23)cc1,-,-,-,50 µg/mL,37%
CC[C@H]1OC(=O)[C@H](C)[C@@H](O[C@H]2C[C@@](C)(OC)[C@@H](O)[C@H](C)O2)[C@H](C)[C@@H](O[C@@H]2O[C@H](C)C[C@H](N(C)C)[C@H]2O)[C@](C)(O)C[C@@H](C)CN(C)[C@H](C)[C@@H](O)[C@]1(C)O,-,A549,-,2 µg/mL,13.5%
CCSc1c2ccccc2nc2cc([N+](=O)[O-])ccc12,-,-,-,10 µg/mL,19%
O=C(c1ccccc1)c1oc2cc(O)cc(Cc3ccccc3)c2c1O,-,-,-,50 µM,11%
CC[C@H]1OC(=O)[C@H](C)[C@@H](O[C@H]2C[C@@](C)(OC)[C@@H](O)[C@H](C)O2)[C@H](C)[C@@H](O[C@@H]2O[C@H](C)C[C@H](N(C)C)[C@H]2O)[C@](C)(O)C[C@@H](C)CN(C)[C@H](C)[C@@H](O)[C@]1(C)O,-,A549,-,0.5 µg/mL,7%
O=C1/C(=C/c2ccc(O)cc2)Oc2cc(O)ccc21,-,-,-,25 µM,31%
Cc1cc(O)c2c(c1Cl)C(=O)c1cn[nH]c1C2=O,-,-,-,25 µM,<10%
CC[C@@H](C(=O)[C@@H](C)[C@@H](O)[C@H](C)CCc1ccc(C)c(O)c1C(=O)O)[C@H]1O[C@](CC)([C@H]2CC[C@](O)(CC)[C@H](C)O2)C[C@@H]1C,IOWA,MDCK,luminescence,0.2 µg/mL,39.6%
COc1cc(/C=C/C=C\c2ccccc2OC)oc(=O)c1,-,-,-,50 µM,19%
Nc1ccc(CSc2c3ccccc3nc3cc(Cl)ccc23)cc1,-,-,-,50 µg/mL,8%
COc1cc(/C=C2\Oc3cc(O)cc(O[C@@H]4O[C@H](CO)[C@@H](O)[C@H](O)[C@H]4O)c3C2=O)cc(OC)c1OC(C)=O,-,-,-,10 µM,0%
NC[C@@H]1O[C@H](O[C@H]2[C@@H](O)[C@H](O[C@@H]3[C@@H](O)[C@H](N)C[C@H](N)[C@H]3O[C@H]3O[C@H](CO)[C@@H](O)[C@H](O)[C@H]3N)O[C@@H]2CO)[C@H](N)[C@@H](O)[C@@H]1O,-,MDBK,cell count,1000 µg/mL,79.3%

The first 2 rows once more:

SMILES,strain,cell line,method,tested at,result
COc1cc(/C=C/C=C\c2ccc3c(c2)OCO3)oc(=O)c1,-,-,-,50 µM,0%
Cc1cccc2c1C(=O)c1cnn(C)c1C2=O,-,-,-,25 µM,<10%

Blank or dashed fields: not listed here. Percent inhibition refers to the dose given; in toxicity tests it is the harm to the cells.